Record: PubChem BioAssay AID1259414 (Drosophila RNAi Screening Center, 2018)

Test: 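Host factors increasing or decreasing Wolbachia levels in cultured fly cells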 (primary screen)
System: Drosophila JW18 cells infected with Wolbachia
Reagent: long dsRNA against Drosophila genes, 0.25 µg dsRNA per well of a 384-well plate
Time to read-out: 5 days
Treatment: cells persistently infected with Wolbachia before knock-down; no added drug
Read-out: 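Imaged fluorescence in situ signal for Wolbachia 23S rRNA per DAPI-counted host cell, given as a robust z-score within each plate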
Direction: Wolbachia per cell robust z: higher = more Wolbachia per host cell than the plate typical
Hit rule: 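Hit when robust z is 1.5 or more, or -1.5 or less, in at least two of three replicates; excludes dsRNAs with several or no targets, genes not expressed in JW18 and well A1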
The deposit covers about 24,000 reagents; below is an unselected part of those that have a named target and a result. In the full data, about 1,210 (5%) were called active. 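Inactive calls also include excluded dsRNAs with several or no targets, genes unexpressed in JW18, and well A1, regardless of score.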 The numbers tell different reagents against one gene apart. No sequences are given here.

| predicted target | dsRNA no. | Wolbachia per cell robust z, rep 1 | Wolbachia per cell robust z, rep 2 | Wolbachia per cell robust z, rep 3 | outcome |
| --- | --- | --- | --- | --- | --- |
| CG13775 | 1 | -0.726 | -0.0994 | -0.429 | inactive |
| CG13775 | 2 | -1.2 | -0.269 | 0.242 | inactive |
| CG32202 | 1 | 0.934 | 0.41 | 0.954 | inactive |
| grim | 1 | 0.416 | 0.232 | -0.591 | inactive |
| icln | 1 | 0.867 | 1.03 | 1.05 | inactive |
| icln | 2 | -0.183 | 0.877 | 0.957 | inactive |
| CG8003 | 1 | -0.267 | -0.143 | 0.836 | inactive |
| Oseg4 | 1 | -0.141 | 0.775 | 0.0805 | inactive |
| CG6443 | 1 | 0.0648 | -0.0658 | 0.556 | inactive |
| CG6443 | 2 | -2.35 | -1.12 | 1.32 | inactive |
| CG8187 | 1 | 0.217 | 1.41 | -0.308 | inactive |
| alphaTub67C | 1 | 1.84 | 1.09 | 1.8 | inactive |
| alphaTub67C | 2 | 1.07 | -0.301 | 1.47 | inactive |
| Spn | 1 | 2.33 | 0.161 | 0.68 | inactive |
| Spn | 2 | 0.633 | -0.885 | -0.248 | inactive |
| Spn | 3 | -0.103 | -0.102 | 0.464 | inactive |
| CG17154 | 1 | -2.48 | 0.497 | 1.12 | inactive |
| trbl | 1 | -1.17 | -1.02 | -0.928 | inactive |
| RagA-B | 1 | -0.276 | -2.88 | -1.61 | active |
| Evi5 | 1 | -0.146 | -0.764 | 0.219 | inactive |
| Evi5 | 2 | 1.79 | 0.233 | 0.749 | inactive |
| c(3)G | 1 | -0.0548 | 0.771 | -5.3 | inactive |
| c(3)G | 2 | -0.152 | -0.155 | -0.622 | inactive |
| UQCR-C2 | 1 | 0.48 | 0.478 | 1.16 | inactive |
| UQCR-C2 | 2 | 0.19 | -0.775 | -0.151 | inactive |
| cno | 1 | 0.0851 | -0.934 | 0.372 | inactive |
| cno | 2 | -1.05 | -1.17 | -0.131 | inactive |
| cno | 3 | 0.591 | 0.688 | 1.14 | inactive |
| cno | 4 | -0.714 | -0.173 | -2.09 | inactive |
| cno | 5 | 0.617 | -0.0055 | -1.92 | inactive |
| CG32727 | 1 | 0.62 | 0.0962 | 0.0345 | inactive |
| CG33172 | 1 | -1.1 | -0.202 | -0.38 | inactive |
| btz | 1 | -1.34 | -0.00624 | -1.54 | inactive |
| btz | 2 | 1.4 | 0.662 | 0.676 | inactive |
| CR34320 | 1 | 0.181 | 0.673 | -0.658 | inactive |
| tin | 1 | -0.313 | 0.485 | -5.16 | inactive |
| tin | 2 | 0.292 | 0.243 | -0.244 | inactive |
| tin | 3 | -0.028 | -0.277 | 0.635 | inactive |
| CG7568 | 1 | -0.188 | 0.823 | 0.652 | inactive |
| CG7568 | 2 | -0.542 | -2.84 | -3.69 | active |
| Mur11Da | 1 | -0.207 | -0.321 | 0.287 | inactive |
| or | 1 | -0.521 | 0.745 | -0.846 | inactive |
| or | 2 | -0.615 | 0.139 | 0.142 | inactive |
| CG17385 | 1 | 0.876 | 1.58 | -1.01 | inactive |
| CG17385 | 2 | -2.01 | 0.791 | 1 | inactive |
| CG32266 | 1 | -0.538 | -0.0578 | 1.04 | inactive |
| CG32266 | 2 | 0.409 | 0.0429 | 0.0275 | inactive |
| lncRNA:CR33938 | 1 | 0.202 | 1.32 | 0.122 | inactive |
| lncRNA:CR33938 | 2 | -2.92 | -0.443 | 1.92 | inactive |
| Ccp84Af | 1 | 0.649 | -1.06 | -1.49 | inactive |
| Ccp84Af | 2 | 0.37 | -0.543 | -1.06 | inactive |
| sowah | 1 | 0.238 | 0.0407 | -2.21 | inactive |
| sowah | 2 | -0.706 | 1.52 | 0.44 | inactive |
| CG2962 | 1 | 0.113 | 0.429 | 0.381 | inactive |
| CG2962 | 2 | -1.11 | 1.71 | -0.228 | inactive |
| CG17065 | 1 | 0.482 | 0.0697 | -6.34 | inactive |
| CG17065 | 2 | -0.092 | -0.186 | -0.433 | inactive |
| CG31915 | 1 | 0.142 | 0.441 | 0.624 | inactive |
| Tmtc1 | 1 | -1.27 | -1.46 | -0.497 | inactive |
| CG5262 | 1 | 0.895 | -0.276 | 1.08 | inactive |
| ImpL1 | 1 | -8.96 | -1.03 | 0.408 | inactive |
| ImpL1 | 2 | 0.448 | 1.29 | 0.594 | inactive |
| Prat2 | 1 | -0.185 | -0.222 | -0.24 | inactive |
| CG15445 | 1 | 1.55 | 1.22 | -0.659 | inactive |
| Als2 | 1 | -0.616 | 0.287 | 0.783 | inactive |
| flr | 1 | 0.299 | 0.19 | -0.225 | inactive |
| CG9667 | 1 | 0.191 | -0.56 | -1.9 | inactive |
| CG9667 | 2 | 1.51 | -0.0456 | 1.35 | inactive |

Targets listed so far whose gene name starts with I or i (4):
| predicted target | dsRNA no. | Wolbachia per cell robust z, rep 1 | Wolbachia per cell robust z, rep 2 | Wolbachia per cell robust z, rep 3 | outcome |
| --- | --- | --- | --- | --- | --- |
| icln | 1 | 0.867 | 1.03 | 1.05 | inactive |
| icln | 2 | -0.183 | 0.877 | 0.957 | inactive |
| ImpL1 | 1 | -8.96 | -1.03 | 0.408 | inactive |
| ImpL1 | 2 | 0.448 | 1.29 | 0.594 | inactive |
